Anti-infective test results gathered from many reports (values: NIAID ChemDB through PubChem).

All rows: tests on isolated targets; organism: Human cytomegalovirus; measure: IC50

Blank or dashed fields: not listed here. ICn: concentration for n% inhibition. Conditions beyond the fields shown may differ between rows.

compound,strain,target,read by,value
Cc1nc2nncnn2c(=O)c1C,-,Protease,-,0.3 µM
O=C(Nc1nnc(NCCC(c2ccccc2)c2ccccc2)s1)c1cc2ccccc2s1,-,Polymerase,-,>25 µM
CC#Cc1cn([C@@H]2O[C@H](CO)[C@@H](O)[C@@H]2O)c(=O)[nH]c1=O,AD169,DNA polymerase,-,0.6 µM
CCCC(C(=O)O)P(=O)(O)O,-,DNA polymerase,-,30 µM
N#CCCn1c2ccccc2c2c3c(c4c5ccccc5[nH]c4c21)C(=O)NC3,-,HCMV protein kinase pUL97,-,0.0428 µM
O=C(Nc1nnc(NCCc2cnc[nH]2)s1)c1ccc(I)cc1,-,Polymerase,-,>25 µM
O=P(O)(O)CP(=O)(O)O,-,DNA polymerase,-,>500 µM
Cc1cc2nc3c(=O)[nH]c(=O)nc-3n(CC(O)C(O)C(O)COP(=O)(O)O)c2cc1C,-,Protease,-,0.3 µM
O=C(Nc1nnc(NC2CCCc3ccccc32)s1)c1ccc2c(c1)C(=O)OC2=O,-,Polymerase,-,<25 µM
CC(O)(P(=O)(O)O)P(=O)(O)O,-,DNA polymerase,-,>500 µM
Cc1cc2nc3c(=O)[nH]c(=O)nc-3n(CC(O)C(O)C(O)COP(=O)(O)OP(=O)(O)OCC3OC(n4cnc5c(N)ncnc54)C(O)C3O)c2cc1C,-,Protease,-,>>40 µM
CCCCCC(=O)N[C@@H](CCCC)C(=O)N[C@@H](CC(=O)N(C)C)C(=O)NC(C)C(=O)C(=O)NCc1ccccc1,-,Protease,-,0.2 µM
O=C(Nc1nnc(NCCCN2CCCC2=O)s1)c1cc(F)cc(F)c1,-,Polymerase,-,>25 µM
O=P(O)(O)C(O)P(=O)(O)O,-,DNA polymerase,-,105 µM
NS(=O)(=O)c1ccc(CCNc2nnc(NC(=O)c3ccc(C(F)(F)F)cc3)s2)cc1,-,Polymerase,-,>25 µM
CC(O)(C(=O)O)P(=O)(O)O,-,DNA polymerase,-,500 µM
O=C(Nc1nnc(NCc2cccnc2)s1)c1c(Cl)cccc1Cl,-,Polymerase,-,<25 µM
O=C(O)CP(=O)(O)O,-,DNA polymerase,-,0.4 µM
CCCCCc1cc(OC(=O)c2c(O)cc(OC(=O)c3c(O)cc(O)cc3CCC)cc2CCC)cc(O)c1C(=O)O,-,HCMV protease,scintillation proximity / radiometric,11 µM

Repeating the final 2 entries:

{"compound": "O=C(O)CP(=O)(O)O", "target": "DNA polymerase", "value": "0.4 µM"}
{"compound": "CCCCCc1cc(OC(=O)c2c(O)cc(OC(=O)c3c(O)cc(O)cc3CCC)cc2CCC)cc(O)c1C(=O)O", "target": "HCMV protease", "read by": "scintillation proximity / radiometric", "value": "11 µM"}